Reference: patent publication EP0912195B1, “VACCINE COMPRISING ANTIGENS BOUND TO CARRIERS THROUGH LABILE BONDS” (PEPSCAN SYSTEMS B.V., priority 1996, dated 1997)
Values joined by “and” are separate entries in the source; they are usually repeats but may differ in a detail not shown here. Equal values may be shown once.

Assays:
[1] = test system: guinea pigs; assay: CPV constructs, third experiment: anti peptide antibody titers in ELISA; assay type: in vivo; details: serum anti-peptide antibody titer, -log(dilution factor); 100 µg; CFA; 8 weeks
[2] = test system: guinea pigs; assay: CPV constructs, first experiment: anti peptide antibody titers in ELISA; assay type: in vivo; details: compared with the peptide conjugated to KLH

In the case of `CCCCCCCCCCCCCCCC(=O)N[C@@H](CS)C(=O)N[C@@H](CO)C(=O)N[C@@H](CC(=O)O)C(=O)NCC(=O)N[C@@H](C)C(=O)N[C@H](C(=O)N[C@@H](CCC(N)=O)C(=O)N1CCC[C@H]1C(=O)N[C@@H](CC(=O)O)C(=O)NCC(=O)NCC(=O)N[C@@H](CCC(N)=O)C(=O)N1CCC[C@H]1C(=O)N[C@@H](C)C(=O)N[C@H](C(=O)N[C@@H](CCCNC(=N)N)C(=O)N[C@@H](CC(N)=O)C(=O)N[C@@H](CCC(=O)O)C(=O)N[C@@H](CCCNC(=N)N)C(=O)N[C@@H](C)C(=O)N[C@H](C(=O)NCC(N)=O)[C@@H](C)O)C(C)C)C(C)C`, the “titer 8 wpv” value [1] is reported as 2.9 and 3.4 and 2.3 and the “antibody response / immunogenic effect in words” value [2] is reported as “lower immunogenic effect”.
